Assay results reported in publication PMC3842230 (Biochemistry, 2013).
Like-named read-outs stand apart in the source and are kept apart here.

Target: Cys-less NorM (Vc-NorM) (Vibrio cholerae serotype O1, UniProt Q9KRU4, C192A/C326T/C365V)
Details: read-out: Apparent KD, CW-EPR, 7 μM Ruboxyl, 0-80 μM NorM

Ruboxyl
Kd (GF buffer with 20 mM NaCl): 1500 nM
Kd (Na+-free GF buffer): 1800 nM
